Results of unrelated studies side by side (data: NIAID ChemDB).

ECn is the concentration giving n% inhibition of infection, replication or growth. MIC50, MIC90 and the like: level of inhibition, or share of isolates inhibited. Conditions beyond the fields shown may differ between rows. Fold resistance: result on the changed form divided by that on wild type. Blank or dashed fields: not listed here. ICn is the concentration giving n% inhibition.

O=C(c1ccccc1)N1C[C@H](CN2CCC(c3ccccc3)CC2)[C@@H](c2ccccc2)C1 ; method: radiometric ; endpoint: IC50 ; protein: CCR5 ; changes: CCR5-Y108A ; test: target ; result: 0.165 µM
O=C(Nc1nnc(NC2CCCCCC2)s1)c1ccc([N+](=O)[O-])o1 ; organism: Human cytomegalovirus ; endpoint: IC50 ; protein: Polymerase ; test: target ; result: <25 µM
COc1cc(C[C@H](C)[C@H](C)Cc2ccc(O)c(O)c2)ccc1O ; organism: Candida glabrata ; method: broth dilution ; endpoint: MIC100 ; strain or isolate: CCC 115-2000 ; test: culture ; result: 125 µg/mL
N#Cc1ccc(C(=O)Nc2nnc(NCCN3CCOCC3)s2)cc1 ; organism: Human cytomegalovirus ; endpoint: IC50 ; protein: Polymerase ; test: target ; result: >25 µM
CC[C@H]1C(=O)Nc2ccc(F)cc2N1C(=O)OC(C)C ; organism: HIV ; method: nucleotide incorporation / radiometric ; endpoint: IC50 ; protein: Reverse transcriptase ; changes: RT-P140A ; test: target ; result: 0.01 µM
C#CC[C@@H](C(=O)N[C@H](/C=C/C(=O)OCC)C[C@@H]1CCNC1=O)n1cccc(NC(=O)c2cc(C)on2)c1=O ; organism: Rhinovirus ; method: cytopathic effect / XTT ; endpoint: EC50 ; strain or isolate: Serotype 10 ; cell line: H1-HELA ; test: culture ; result: 0.042 µM
Cc1cn([C@@H]2O[C@H](CO[Si](C)(C)C(C)(C)C)[C@@]3(OS(=O)(=O)C=C3N)[C@H]2O[Si](C)(C)C(C)(C)C)c(=O)[nH]c1=O ; organism: HIV ; method: nucleotide incorporation / radiometric ; endpoint: fold resistance ; protein: Reverse transcriptase ; changes: RT-P95A ; test: target ; result: 0.56
CCN(C(=O)OCc1ccccc1)C1CCN(CC[C@](C)(CN(C)S(=O)(=O)c2ccccc2)c2ccccc2)CC1 ; method: radiometric ; endpoint: IC50 ; protein: CCR5 ; changes: CCR5-W86A ; test: target ; result: 0.21 µM
CC(C)=CCOc1cc(NC(=S)c2ccoc2C)ccc1Cl ; organism: HIV ; method: nucleotide incorporation / radiometric ; endpoint: fold resistance ; protein: Reverse transcriptase ; changes: RT-N137T ; test: target ; result: 0.27
CCCCCCCC/C=C/CCCCCCCC(=O)Nc1nnc(NC2CC2)s1 ; organism: Human cytomegalovirus ; endpoint: IC50 ; protein: Polymerase ; test: target ; result: <25 µM
C=CCN(C(=O)OCc1ccc([N+](=O)[O-])cc1)C1CCN(CC[C@](C)(CN(C)S(=O)(=O)c2ccccc2)c2ccccc2)CC1 ; method: radiometric ; endpoint: IC50 ; protein: CCR5 ; changes: CCR5-W86A ; test: target ; result: 0.13 µM
O=C(Nc1nnc(NCCSc2ccccc2)s1)c1ccc(F)cc1F ; organism: Human cytomegalovirus ; endpoint: IC50 ; protein: Polymerase ; test: target ; result: >25 µM
CCO/N=C/c1ccc(OCCC2CCN(c3ccc(C)nn3)CC2)cc1 ; organism: Rhinovirus ; method: neutral red ; endpoint: EC50 ; strain or isolate: A2#58 (ICAM-1 receptor group 50) ; cell line: KB ; test: culture ; result: 0.001 µM
CCOc1ccc2ccccc2c1C(=O)Nc1nnc(NC2CCCc3ccccc32)s1 ; organism: Human cytomegalovirus ; endpoint: IC50 ; protein: Polymerase ; test: target ; result: <25 µM
CC(C)=CCN1c2cc(Cl)cc3[nH]c(=S)n(c23)C[C@@H]1C ; organism: HIV-1 ; endpoint: EC95 ; changes: RT-M41L T215Y K101E ; cell line: MT-4 ; test: culture ; result: 1.5 µM

Repeating the final 2 entries:

compound,organism,method,endpoint,strain or isolate,protein,changes,cell line,test,result
CCOc1ccc2ccccc2c1C(=O)Nc1nnc(NC2CCCc3ccccc32)s1,Human cytomegalovirus,,IC50,,Polymerase,,,target,<25 µM
CC(C)=CCN1c2cc(Cl)cc3[nH]c(=S)n(c23)C[C@@H]1C,HIV-1,,EC95,,,RT-M41L T215Y K101E,MT-4,culture,1.5 µM